Results of unrelated studies side by side (data: NIAID ChemDB).

Shared fields: target-level tests

ICn: concentration for n% inhibition. a–b is a range or a potency band. Blank or dashed fields: not listed here. Lines come from different laboratories, so protocols vary. Inhibition is in % at the dose shown (toxicity tests: loss of growth or viability).

compound | strain | protein | endpoint | dose | agent | read by | result
O=C(Nc1ccsc1-c1nc(C(=O)O)c(O)c(=O)[nH]1)OCCc1c[nH]c2ccccc12 | - | HCV polymerase | IC50 | - | Hepatitis C virus | - | <25 µM
O=C(Nc1ccc2cn[nH]c2c1)c1cc(N2CCC(O)CC2)c(F)cc1F | - | Reverse transcriptase | inhibition | 0.1 µg/mL | Hepatitis B virus | - | 38%
O=C(Nc1cccc(-c2nc(C(=O)O)c(O)c(=O)[nH]2)c1)c1ccccc1 | - | HCV polymerase | IC50 | - | Hepatitis C virus | - | <100 µM
O=c1c(-c2ccc(O)cc2)coc2cc(OC3OC(CO)C(O)C(O)C3O)cc(O)c12 | J4 | Replicase complex | inhibition | 20 µM | Hepatitis C virus | SYBR Green | 13.1%
CN1CCN(c2cc(C(=O)Nc3ccc4[nH]ncc4c3)c(F)cc2F)CC1 | - | Reverse transcriptase | inhibition | 0.01 µg/mL | Hepatitis B virus | - | 43%
COc1cc(C)c(S(=O)(=O)N(Cc2ccc(-c3cc4ccccc4o3)cc2)[C@@H](Cc2ccc(O)cc2)C(=O)O)c(C)c1C | - | RNA-dependent RNA polymerase | IC50 | - | Hepatitis C virus | - | <5 µM
O=C(Nc1ccsc1-c1nc(C(=O)O)c(O)c(=O)[nH]1)OCCc1ccc2ccccc2c1 | - | HCV polymerase | IC50 | - | Hepatitis C virus | - | <25 µM
O=C1/C(=C\c2cc(F)c(F)cc2F)SC(=S)N1NS(=O)(=O)c1ccccc1 | - | NS5B polymerase | IC50 | - | Hepatitis C virus | - | ≤30 µM
Cc1ccc(C(=O)N(c2cc(-c3ccccc3)sc2C(=O)O)C2CCN(C(=O)OC(C)(C)C)CC2)cc1 | - | NS3 ATPase | IC50 | - | Hepatitis C virus | - | <5 µM
O=C(O)[C@H]1O[C@@H](Oc2cc3oc(-c4ccccc4)cc(=O)c3c(O)c2O)[C@H](O)[C@@H](O)[C@@H]1O | J4 | Replicase complex | inhibition | 20 µM | Hepatitis C virus | SYBR Green | 61.8%
CC(C)C(=O)N(Cc1ccc(C(F)(F)F)cc1)c1cc(-c2ccccc2)sc1C(=O)O | - | NS3 ATPase | IC50 | - | Hepatitis C virus | - | 5–20 µM
COc1cc(C)c(S(=O)(=O)N(Cc2cccc(I)c2)C(Cc2ccccc2)C(=O)O)c(C)c1C | - | RNA-dependent RNA polymerase | IC50 | - | Hepatitis C virus | - | 5–20 µM
Cc1ccccc1S(=O)(=O)Nc1cc(-c2ccc(Cl)cc2)sc1C(=O)O | - | NS3 ATPase | IC50 | - | Hepatitis C virus | - | <5 µM
O=C(Nc1ccc2cn[nH]c2c1)c1cc(N2CCNCC2)c(F)cc1F | - | Reverse transcriptase | IC50 | - | Hepatitis B virus | - | 0.1–1 µg/mL
O=C(O)c1nc(-c2cccc(NS(=O)(=O)c3ccccc3)c2)[nH]c(=O)c1O | - | HCV polymerase | IC50 | - | Hepatitis C virus | - | <100 µM
O=C1/C(=C\c2ccc(Cl)c(Cl)c2)SC(=S)N1NS(=O)(=O)c1cccs1 | - | NS5B polymerase | IC50 | - | Hepatitis C virus | - | ≤30 µM
O=C(O)c1sc(-c2ccccc2)cc1N(CC1CCNCC1)C(=O)c1ccc(Cl)cc1Cl | - | NS3 ATPase | IC50 | - | Hepatitis C virus | - | <5 µM
N[C@@H](Cc1ccccc1)C(=O)Nc1ccsc1-c1nc(C(=O)O)c(O)c(=O)[nH]1 | - | HCV polymerase | IC50 | - | Hepatitis C virus | - | <25 µM
COc1cc(C)c(S(=O)(=O)N(Cc2cccc(-c3cc4ccccc4o3)c2)[C@@H](Cc2ccccc2)C(=O)[O-])c(C)c1C | - | RNA-dependent RNA polymerase | IC50 | - | Hepatitis C virus | - | <5 µM
C=C[C@@H]1C[C@]1(NC(=O)[C@@H]1C[C@@H](Oc2nccc3ccc(Br)cc23)CN1C(C)=O)C(=O)NS(=O)(=O)C1CC1 | 1b A156T | Nonstructural protein 3/4A | IC50 | - | Hepatitis C virus | FRET | >3 µM
CN1CCNCCC1c1cc(C(=O)Nc2ccc3[nH]ncc3c2)c(F)cc1F | - | Reverse transcriptase | inhibition | 1 µg/mL | Hepatitis B virus | - | 74%
O=C(c1ccc(CN(c2ccc(Cl)cc2Cl)[C@@H](Cc2ccccc2)C(=O)O)cc1)c1ccc(Cl)cc1Cl | - | RNA-dependent RNA polymerase | IC50 | - | Hepatitis C virus | - | <5 µM
O=C1/C(=C\c2ccc(Br)cc2)SC(=S)N1NS(=O)(=O)c1ccccc1 | - | NS5B polymerase | IC50 | - | Hepatitis C virus | - | ≤30 µM
CN(C(=O)c1ccc(Cl)cc1)c1cc(-c2ccccc2)sc1C(=O)O | - | NS3 ATPase | IC50 | - | Hepatitis C virus | - | <5 µM
CS(=O)(=O)c1ccc(C(=O)Nc2ccsc2-c2nc(C(=O)O)c(O)c(=O)[nH]2)cc1 | - | HCV polymerase | IC50 | - | Hepatitis C virus | - | <25 µM
COC(=O)c1sc(-c2ccccc2)cc1NC(=O)c1ccccc1C(=O)O | - | NS3 ATPase | IC50 | - | Hepatitis C virus | - | 5–20 µM
O=C(Nc1cccc(-c2nc(C(=O)O)c(O)c(=O)[nH]2)c1)Nc1ccccc1C(F)(F)F | - | HCV polymerase | IC50 | - | Hepatitis C virus | - | <100 µM
O=C(Nc1ccc2cn[nH]c2c1)c1cc(N2CCN(CCO)CC2)c(F)cc1F | - | Nonstructural protein 5B | inhibition | 10 µg/mL | Hepatitis C virus | - | 38%
O=C1/C(=C\c2ccc3c(c2)OCCO3)SC(=S)N1NS(=O)(=O)c1ccccc1 | - | NS5B polymerase | IC50 | - | Hepatitis C virus | - | ≤30 µM
O=c1cc(-c2ccc(O)cc2)oc2cc(O)c(O)c(O)c12 | J4 | Replicase complex | inhibition | 20 µM | Hepatitis C virus | SYBR Green | 67.4%
Cc1ccc(S(=O)(=O)Nc2cc(-c3ccccc3)sc2C(=O)O)cc1 | - | NS3 ATPase | IC50 | - | Hepatitis C virus | - | <5 µM
O=C(Nc1ccc2[nH]ncc2c1)c1cc(N2CCNCC2)c(F)cc1F | - | Nonstructural protein 5B | inhibition | 10 µg/mL | Hepatitis C virus | - | 69%
COc1ccccc1-c1cc(NS(=O)(=O)c2ccccc2C)c(C(=O)O)s1 | - | NS3 ATPase | IC50 | - | Hepatitis C virus | - | 5–20 µM
O=C1/C(=C\c2ccc(F)cc2)SC(=S)N1NS(=O)(=O)c1ccccc1 | - | NS5B polymerase | IC50 | - | Hepatitis C virus | - | ≤30 µM
O=C(NCc1ccccc1COCc1ccccc1)Nc1ccsc1-c1nc(C(=O)O)c(O)c(=O)[nH]1 | - | HCV polymerase | IC50 | - | Hepatitis C virus | - | <25 µM
CN1CCN(c2cc(C(=O)Nc3ccc4cn[nH]c4c3)c(F)cc2F)CC1 | - | Nonstructural protein 5B | inhibition | 10 µg/mL | Hepatitis C virus | - | 43%
O=c1c(O[C@@H]2O[C@H](CO)[C@H](O)[C@H](O)[C@H]2O)c(-c2ccc(O)c(O)c2)oc2cc(O)cc(O)c12 | J4 | Replicase complex | inhibition | 20 µM | Hepatitis C virus | SYBR Green | 28.1%
COC(=O)c1nc(-c2sccc2NC(=O)OCc2cccc(C)c2)[nH]c(=O)c1O | - | HCV polymerase | IC50 | - | Hepatitis C virus | - | <50 µM
Cc1ccccc1S(=O)(=O)Nc1cc(-c2ccc(OC(F)(F)F)cc2)sc1C(=O)O | - | NS3 ATPase | IC50 | - | Hepatitis C virus | - | <5 µM

Repeating the final 4 entries:

compound,strain,protein,endpoint,dose,agent,read by,result
CN1CCN(c2cc(C(=O)Nc3ccc4cn[nH]c4c3)c(F)cc2F)CC1,-,Nonstructural protein 5B,inhibition,10 µg/mL,Hepatitis C virus,-,43%
O=c1c(O[C@@H]2O[C@H](CO)[C@H](O)[C@H](O)[C@H]2O)c(-c2ccc(O)c(O)c2)oc2cc(O)cc(O)c12,J4,Replicase complex,inhibition,20 µM,Hepatitis C virus,SYBR Green,28.1%
COC(=O)c1nc(-c2sccc2NC(=O)OCc2cccc(C)c2)[nH]c(=O)c1O,-,HCV polymerase,IC50,-,Hepatitis C virus,-,<50 µM
Cc1ccccc1S(=O)(=O)Nc1cc(-c2ccc(OC(F)(F)F)cc2)sc1C(=O)O,-,NS3 ATPase,IC50,-,Hepatitis C virus,-,<5 µM